Results of unrelated studies side by side (data: NIAID ChemDB).

Shared fields: growth or infection tests; organism: Mycobacterium avium complex; endpoint: MIC90

a–b is a range or a potency band. MIC50, MIC90 and the like: level of inhibition, or share of isolates inhibited. Lines come from different laboratories, so protocols vary.

{"structure": "CN1CCCC1CCN=c1cc2n(-c3ccc(Cl)cc3)c3ccccc3nc-2cc1Nc1ccccc1", "strain": "10 srtains", "result": "2 µg/mL"}
{"structure": "CCOc1c(N2CCC(C(C)(C)N)C2)c(F)cc2c(=O)c(C(=O)O)cn(C3CC3)c12", "result": "8 µg/mL"}
{"structure": "CO[C@H]1/C=C/O[C@@]2(C)Oc3c(C)c(O)c4c(=O)c(c5oc6cc(N7CCN(C(C)C)CC7)cc(=O)c6nc5c4c3=C2O)NC(=O)/C(C)=C\\C=C\\[C@H](C)[C@H](O)[C@@H](C)[C@@H](O)[C@@H](C)[C@H](OC(C)=O)[C@@H]1C", "strain": "20 strains", "result": "0.07–0.3 µg/mL"}
{"structure": "NCC1CN(c2c(F)cc3c(=O)c(C(=O)O)cn(C4CC4)c3c2F)CC1c1ccccc1", "result": "16 µg/mL"}
{"structure": "C[C@@H]1CN(c2cc3c(cc2F)c(=O)c(C(=O)O)cn3C(C)(C)C)C[C@H](C)N1", "strain": "14 strains", "result": "1 µg/mL"}
{"structure": "CC1CN(c2c(F)cc3c(=O)c(C(=O)O)cn(C4CC4)c3c2F)CC(C)N1", "strain": "14 strains", "result": "2 µg/mL"}
{"structure": "NC1CN(c2cc3c(cc2F)c(=O)c(C(=O)O)cn3C2CC2)CC1C1CC1", "result": "16 µg/mL"}
{"structure": "O=C(O)c1cn(C2CC2)c2c(F)c(N3CCS(=O)CC3)c(F)cc2c1=O", "strain": "14 strains", "result": "4 µg/mL"}
{"structure": "CC1CN(c2c(F)c(N)c3c(=O)c(C(=O)O)cn(C4CC4)c3c2F)CCN1C", "result": "2 µg/mL"}
{"structure": "CN(C)CC1CCN(c2c(F)cc3c(=O)c(C(=O)O)cn(C4CC4)c3c2F)C1", "strain": "14 strains", "result": "2 µg/mL"}
{"structure": "C[C@@H]1CN(c2c(F)c(N)c3c(=O)c(C(=O)O)cn(C4CC4)c3c2F)C[C@H](C)N1", "strain": "20 strains", "result": "0.78 µg/mL"}
{"structure": "CC1COc2c(N3CCN(C)CC3)c(F)cc3c(=O)c(C(=O)O)cn1c23", "result": "8–128 µg/mL"}
{"structure": "C[C@@H]1CN(c2c(F)c(N)c3c(=O)c(C(=O)O)cn(C4CC4)c3c2F)C[C@H](C)N1", "strain": "20 strains", "result": "6.25 µg/mL"}
{"structure": "O=C(O)c1cn(C2CC2)c2c(F)c(N3CCC(NC4CC4)C3)c(F)cc2c1=O", "strain": "14 strains", "result": "8 µg/mL"}
{"structure": "O=C(O)c1cn(-c2ccc(F)cc2F)c2cc(N3CCNCC3)c(F)cc2c1=O", "strain": "14 strains", "result": "8 µg/mL"}
{"structure": "CO[C@H]1/C=C/O[C@@]2(C)Oc3c(C)c(O)c4c(=O)c(c5oc6cc(N7CCN(CC(C)C)CC7)cc(=O)c6nc5c4c3=C2O)NC(=O)/C(C)=C\\C=C\\[C@H](C)[C@H](O)[C@@H](C)[C@@H](O)[C@@H](C)[C@H](OC(C)=O)[C@@H]1C", "strain": "18 strains", "result": "1.56 µg/mL"}
{"structure": "CCC1CN(c2cc3c(cc2F)c(=O)c(C(=O)O)cn3-c2ccc(F)cc2F)CCN1", "strain": "14 strains", "result": "32 µg/mL"}
{"structure": "CCC(C)N1CCN(c2cc(=O)c3nc4c(oc3c2)c2c(=O)c3c(O)c(C)c5c(c34)=C(O)[C@@](C)(O/C=C/[C@H](OC)[C@@H](C)[C@@H](OC(C)=O)[C@H](C)[C@H](O)[C@H](C)[C@@H](O)[C@@H](C)/C=C/C=C(/C)C(=O)N2)O5)CC1", "strain": "18 strains", "result": "6.25 µg/mL"}
{"structure": "CO[C@H]1/C=C/O[C@@]2(C)Oc3c(C)c(O)c4c(O)c(c(/C=N/N5CCN(C)CC5)c(O)c4c3C2=O)NC(=O)/C(C)=C\\C=C\\[C@H](C)[C@H](O)[C@@H](C)[C@@H](O)[C@@H](C)[C@H](OC(C)=O)[C@@H]1C", "strain": "52 isolates", "result": "50 µg/mL"}
{"structure": "CC(N)C1CCN(c2nc3c(cc2F)c(=O)c(C(=O)O)cn3C2CC2)C1", "result": "32 µg/mL"}
{"structure": "CCC1CN(c2nc3c(cc2F)c(=O)c(C(=O)O)cn3C(C)(C)C)CCN1", "strain": "14 strains", "result": "4 µg/mL"}
{"structure": "CN1CCN(CCCN=c2cc3n(-c4ccc(Cl)cc4)c4ccccc4nc-3cc2Nc2ccccc2)CC1", "strain": "10 srtains", "result": "3.3 µg/mL"}
{"structure": "O=C(O)c1cn(C2CC2)c2c(F)c(N3CCS(=O)(=O)CC3)c(F)cc2c1=O", "strain": "14 strains", "result": "4 µg/mL"}
{"structure": "CO[C@H]1/C=C/O[C@@]2(C)Oc3c(C)c(O)c4c(=O)c(c5oc6cc(N7CCN(CC(C)C)CC7)cc(=O)c6nc5c4c3=C2O)NC(=O)/C(C)=C\\C=C\\[C@H](C)[C@H](O)[C@@H](C)[C@@H](O)[C@@H](C)[C@H](OC(C)=O)[C@@H]1C", "strain": "20 strains", "result": "0.39 µg/mL"}
{"structure": "Clc1ccc(Nc2cc3nc4ccccc4n(-c4ccc(Cl)cc4)c-3cc2=NCCCN2CCCC2)cc1", "strain": "10 srtains", "result": "1.88 µg/mL"}
{"structure": "CCC1CN(c2c(F)cc3c(=O)c(C(=O)O)cn(C4CC4)c3c2OC)CCN1", "strain": "14 strains", "result": "4 µg/mL"}
{"structure": "CC1CN(c2cc3c(c(CO)c2F)c(=O)c(C(=O)O)cn3C2CC2)CCN1", "result": "32 µg/mL"}

Repeating the final 2 entries:

{"structure": "CCC1CN(c2c(F)cc3c(=O)c(C(=O)O)cn(C4CC4)c3c2OC)CCN1", "strain": "14 strains", "result": "4 µg/mL"}
{"structure": "CC1CN(c2cc3c(c(CO)c2F)c(=O)c(C(=O)O)cn3C2CC2)CCN1", "result": "32 µg/mL"}